According to paper PMC9504208, “Comprehensive Study of Antiretroviral Drug Permeability at the Cervicovaginal Mucosa via an In Vitro Model” (Pharmaceutics, 2022):

Tested on: HEC-1A cell layers
Assay: Transepithelial electrical resistance (TEER) of HEC-1A cell layers
Type: cell-based, human

SMILES: C[S+](C)[O-] [DMSO]
- Reduction of TEER values (buffer containing 1% DMSO applied to apical compartment): no reduction
- Reduction of TEER values (buffer containing 1% DMSO applied to basolateral compartment): 60–70%
